Measurements from patent publication US9598459B2, “Pharmaceutical compositions and methods” (priority 2015, dated 2017).
Values joined by “and” are separate entries in the source; they are usually repeats but may differ in a detail not shown here. Equal entries are not always repeated. Where two headings read alike, the source gives them in different places.

Columns and labels:
[1] = tested on: HIV-1 strain LAI; assay: HIV-1 replication reverse transcriptase (RT) assay in PBMC; format: cell-based, human immunodeficiency virus type 1
[2] = tested on: HIV-1 LAV; assay: Inhibition of inducible HIV-1 LAV replication in OM-10.1 (RT values); format: cell-based, human immunodeficiency virus type 1
[3] = tested on: Dengue 2; assay: Dengue virus antiviral screen in HUH7; format: cell-based, dengue virus type 2; settings: CC50/EC50
[4] = tested on: Yellow Fever 17D Vaccine; format: cell-based, yellow fever virus; design: SI50: unit not given beside the values
[5] = tested on: Yellow fever virus 17D; format: cell-based
[6] = tested on: Zika virus MR766; assay: Zika virus antiviral screen in HuH-7; format: cell-based
[7] = tested on: Tacaribe TRVL11573; format: cell-based, Tacaribe virus; design: unit not given beside the values; settings: CC50/EC50, Vero
[8] = tested on: Rift Valley fever MP-12; format: cell-based, Rift Valley fever virus; design: SI50: unit not given beside the values
[9] = tested on: Poliovirus type 3 WM-3; format: cell-based; design: SI90: unit not given beside the values
[10] = tested on: Enterovirus D68 US/KY/14-18953; assay: Enterovirus D68 antiviral screen in RD; format: cell-based; design: SI50: unit not given beside the values; settings: for SI50: CC50/EC50, RD
[11] = tested on: Enterovirus 71 Tainan/4643/98; format: cell-based; design: SI90: unit not given beside the values
[12] = tested on: Venezuelan equine encephalitis TC-83; format: cell-based, Venezuelan equine encephalitis virus; design: SI50: unit not given beside the values
[13] = tested on: Respiratory syncytial type A A2 (VR-1540); assay: Respiratory syncytial virus type A antiviral screen in MA-104; format: cell-based; settings: for SI50: CC50/EC50
[14] = tested on: Norwalk virus (replicon) GT1; assay: Norwalk virus replicon (GT1) in HG23, RNA hybridization; format: cell-based, Norwalk virus (human norovirus); design: SI90: unit not given beside the values
[15] = tested on: Japanese encepahalitis virus SA-14; assay: Japanese encephalitis virus antiviral screen in Vero 76; format: cell-based; design: unit not given beside the values; settings: JEV
[16] = tested on: West Nile virus Kern 515, WN02; assay: West Nile virus antiviral screen in Vero 76; format: cell-based; design: unit not given beside the values
[17] = tested on: MNV MNV-1; assay: Murine norovirus (MNV-1) antiviral screen in RAW267.4; format: cell-based; design: SI90: unit not given beside the values
[18] = tested on: swine-origin pandemic influenza A (H1N1) virus; format: cell-based; design: unit not given beside the values
[19] = tested on: Herpes simplex virus type 1 E-377; assay: Herpes simplex virus type 1 antiviral screen in primary HFF-1 (CellTiter-Glo); format: cell-based; settings: CC50/EC50
[20] = tested on: MERS coronavirus HCoV-EMC/2012; format: cell-based; design: unit not given beside the values
[21] = tested on: Vaccinia virus Copenhagen; format: cell-based; settings: CC50/EC50; Primary HFF-1, CellTiter-Glo

`CC#CC1(O)CCC2C3CCC4=CC(=NNC(N)=S)CCC4=C3C(c3ccc4c(c3)OCO4)CC21C.CC#CC1(O)CCC2C3CCC4=CC(=O)CCC4=C3C(c3ccc4c(c3)OCO4)CC21C.CC(C)=O.CCO.O` (stereo not drawn) [PT155, ⅓ (11β,17β)-17-Hydroxy-11-[3,4-(methylenedioxy)phenyl]-17-(1-propyn-1-yl)estra-4,9-dien-3-one (ORG34517)×(2EZ)-2-{(11β,17β)-17-hydroxy-11-[3,4-(methylenedioxy)phenyl]-17-(1-propyn-1-yl)estra-4,9-dien-3-ylidene}hydrazinecarbothioamide [71.8% (E), 28.2% (Z)] hemihydrate×¾% acetone× ⅛ ethanol] was tested, and the SI50 ([1]; CC50/EC50) was 15, the “SI50 (CC50/EC50)” value ([1]; HIV-1LAI) was 15.0 and the “ANTIVIRAL INDEX (AI) 50%” value ([2]; OM-10.1) was >23.1. The “ANTIVIRAL INDEX (AI) 90%” value ([2]; OM-10.1) was >2.02, the “ANTIVIRAL INDEX (AI) 95%” value ([2]; OM-10.1) was >1.38 and the “Selectivity Index (CC50/EC50)” value ([2]; OM-10.1, Table 7) was >23.1. The SI50 ([3]; HuH-7, Neutral red) was 0, the SI50 ([3]; HuH-7, Visual) was 0 and the SI50 [4] was >1.8. For the same compound, the “Selectivity index 50% SI50” value [4] was 2.9, the “Selectivity index 50% SI50” value [5] was <1 and the SI50 ([6]; CC50/EC50, HuH-7, Neutral red) was 8.6. For the same compound, the SI50 ([6]; CC50/EC50, HuH-7, Visual) was 88, the SI90 ([6]; CC50/EC90, Zika, Example 9) was >122 and the SI50 ([6]; Neutral Red, Zika, Example 9, ratio CC50 / EC50) was >1800. For the same compound, the SI50 ([6]; Zika MR-766, HUH7, Tables 2-3, ratio CC50 / EC50) was 88.2, the “SI50 (CC50/EC50)” value ([6]; Zika, HuH-7, Table 10) was 88.2 and the “Selectivity index 50% SI50” value ([6]; Zika, HuH-7, Tables 5-6) was 88.2. The SI50 ([7]; Neutral red) was 0, the SI50 ([7]; Visual) was 0 and the SI50 [8] was 2.3 and 3.9. The “Selectivity index 50% SI50” value [8] was 6.6, the “SI50 (CC50/EC50)” value [9] was 61.4 and the SI90 [9] was >10. The “Selectivity index 50% SI50” value [9] was 61.4, the SI50 ([9]; ratio CC50 / EC50) was 55 and 62 and >34 and the SI50 ([10]; Neutral red) was 0. For the same compound, the SI50 ([10]; Visual) was 1, the “Selectivity index 50% SI50” value ([10]; Enterovirus D68, RD, Tables 5-6) was <1 and the SI50 ([11]; CC50/EC50, Vero 76, Neutral red) was 280. The SI50 ([11]; CC50/EC50, Vero 76, Visual) was 89, the SI90 ([11]; CC50/EC90, Enterovirus 71, Example 7) was 0 and the “SI50 (CC50/EC50)” value ([11]; Enterovirus 71, Vero 76, Table 10) was 89.0. For the same compound, the “Selectivity index 50% SI50” value ([11]; Enterovirus 71, Vero 76, Tables 5-6) was 89.0, the SI50 ([11]; Neutral Red, Enterovirus 71, Example 7, ratio CC50 / EC50) was >59 and the SI50 [12] was 0. For the same compound, the “Selectivity index 50% SI50” value [12] was <1, the SI50 ([13]; MA-104, Neutral red) was 1.3 and the SI50 ([13]; MA-104, Visual) was 1.2. The “Selectivity index 50% SI50” value ([13]; Respiratory syncytial type A, MA-104) was <1, the SI50 ([14]; CC50/EC50, Norovirus/1968/US, HG23, Replicon) was 4.3 and the SI50 ([14]; NV GT1, Example 10) was >3. For the same compound, the SI90 ([14]; NV GT1, Example 10) was >1, the SI50 ([14]; NV GT1, Example 10, listed as 16-000163) was >2 and the “SI50 (CC50/EC50)” value ([14]; Norwalk replicon, HG23, Table 10) was 4.3. The SI50 ([15]; Neutral Red) was 2, the SI50 ([15]; Visual) was 9.2 and the SI50 ([16]; Neutral Red) was 0. It also gave an SI50 ([16]; Visual) of 0, an SI90 ([17]; Example 11) of 117 and an SI90 ([17]; Example 11, listed as 16-000163) of 131. For the same compound, the SI50 ([17]; Example 11, listed as 16-000163, ratio CC50 / EC50) was 427, the SI50 ([17]; Example 11, ratio CC50 / EC50) was 391 and the SI50 [18] was >2.8 and >3.1. For the same compound, the SI50 [19] was <4, the SI50 [20] was 0 and the SI50 [21] was 1.
